Source: PubChem BioAssay
Values joined by “and” are separate entries in the source; they are usually repeats but may differ in a detail not shown here. Identical values can stand only once. The entries are a selection whose mix differs from that of the whole data set. Active and inactive are the calls of the source. Rule as the data show it, unless noted: active = inhibition above about 37%; inactive = the rest.

Columns and labels:
[1] = tested on: Hepatitis C virus NS3 helicase; test: HCV NS3 helicase inhibitors, primary screen, biochemical, fluorescence polarization, LOPAC1280 library (AID 687035); settings: Purified HCV NS3 helicase, Cy5-dT15 ssDNA binding fluorescence polarization; stronger effect = higher value; concentration not given here
[2] = Cy5 fluorescence quenching or enhancement artefacts, artefact control for HCV NS3 helicase inhibitor project, biochemical, LOPAC1280 (AID 687037; call rule not given here); settings: Cy5-DNA-NS3h complex fluorescence interference counterscreen
[3] = liver-stage malaria parasite growth inhibition, primary screen, cell-based, HepG2, luciferase luminescence, HepG2 viability (AID 624349; in the data active = parasite load remaining mostly below about 12%, no sharp cut-off; inactive = mostly above about 10%;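 also: 100% = mean of DMSO negative control wells on the same plate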); settings: P. berghei liver stage in HepG2, luciferase luminescence; stronger effect = lower value; concentration not given here

SMILES | inhibition [1] | fluorescence ratio (interference) [2] | parasite load remaining [3]
CN(C(=O)Cc1ccccc1)[C@@H]1CC[C@]2(CCCO2)C[C@H]1N1CCCC1 | inactive: -1% | inactive: 1 | –
NC(=O)Nc1ccc([As](=O)(O)O)cc1 | – | – | inactive: 110% and inactive: 74.2%
CN(C(=O)Cc1ccc(Cl)c(Cl)c1)[C@@H]1CC[C@]2(CCCO2)C[C@H]1N1CCCC1 | inactive: -5% | inactive: 1 | –
CN(CCCl)Cc1cc(Cl)c(NC2=NCCN2)c(Cl)c1 | inactive: -4% | inactive: 1 | –
CN(C(=O)Cc1ccc(Cl)c(Cl)c1)[C@H]1CCCC[C@@H]1N1CCCC1 | inactive: -4% | inactive: 1 | –
CN(C(=O)Cc1ccc(Cl)c(Cl)c1)[C@@H]1CCCC[C@@H]1N1CCCC1 | inactive: -5% | inactive: 1 | –
